Laboratory results: PubChem BioAssay AID1259414 (Drosophila RNAi Screening Center, 2018)

- Assay: 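Genome-wide screen for host control of endosymbiont load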 (primary screen)
- Cell system: Drosophila JW18 cells infected with Wolbachia
- Knock-down reagent: long dsRNA against Drosophila genes, 0.25 µg dsRNA per well of a 384-well plate
- Duration: 5 days
- Treatment: cells persistently infected with Wolbachia before knock-down; no added drug
- Read-out: 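Automated imaging of bacterial rRNA staining divided by host cell count, reported as plate-normalised robust z-score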
- Reading the numbers: Wolbachia per cell robust z: higher = more Wolbachia per host cell than the plate typical
- Call rule: 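Active if absolute robust z reaches 1.5 in two or more of three replicates, leaving out multi- or no-target dsRNAs, genes unexpressed in JW18 and A1 wells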
The screen tested about 24,000 reagents; shown is an unselected part of those that have a named target and a result. Of all reagents, about 1,210 (5%) got an active call. 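Inactive calls also include excluded dsRNAs with several or no targets, genes unexpressed in JW18, and well A1, regardless of score.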 Unmarked entries are inactive. The numbers tell different reagents against one gene apart. Reagent sequences are not shown.

How did the screen score Dip-C (Dipeptidase C)?
Wolbachia per cell robust z, rep 1: -1.51 (active); Wolbachia per cell robust z, rep 2: -1.91; Wolbachia per cell robust z, rep 3: 0.882

With Ets96B #1, how do the results read?
Wolbachia per cell robust z, rep 1: -2.94; Wolbachia per cell robust z, rep 2: -0.135; Wolbachia per cell robust z, rep 3: 0.397

Which result is listed for Ets96B #2?
Wolbachia per cell robust z, rep 1: -5.36; Wolbachia per cell robust z, rep 2: 0.569; Wolbachia per cell robust z, rep 3: 1.03

With Ir60a (Ionotropic receptor 60a), how do the results read?
Wolbachia per cell robust z, rep 1: 0.0664; Wolbachia per cell robust z, rep 2: 0.162; Wolbachia per cell robust z, rep 3: -0.696

What is on record for CG13937?
Wolbachia per cell robust z, rep 1: 0.562; Wolbachia per cell robust z, rep 2: -0.724; Wolbachia per cell robust z, rep 3: -0.85

Which result is listed for CG31122 #1?
Wolbachia per cell robust z, rep 1: -0.314; Wolbachia per cell robust z, rep 2: 0.0813; Wolbachia per cell robust z, rep 3: -1.32

What did the screen give for CG31122 #2?
Wolbachia per cell robust z, rep 1: 0.385; Wolbachia per cell robust z, rep 2: 0.778; Wolbachia per cell robust z, rep 3: -0.558

Which result is listed for Hey (Hairy/E(spl)-related with YRPW motif)?
Wolbachia per cell robust z, rep 1: -1.12; Wolbachia per cell robust z, rep 2: -0.377; Wolbachia per cell robust z, rep 3: -4.81

For CG43755 #1, what does the deposit list?
Wolbachia per cell robust z, rep 1: 0.249; Wolbachia per cell robust z, rep 2: -0.146; Wolbachia per cell robust z, rep 3: 0.206

Which result is listed for CG43755 #2?
Wolbachia per cell robust z, rep 1: 0.263; Wolbachia per cell robust z, rep 2: -1.82; Wolbachia per cell robust z, rep 3: -0.327

With CG43755 #3, how do the results read?
Wolbachia per cell robust z, rep 1: 1.16; Wolbachia per cell robust z, rep 2: 0.158; Wolbachia per cell robust z, rep 3: -0.384

What did the screen give for HP1c (Heterochromatin Protein 1c) #1?
Wolbachia per cell robust z, rep 1: -3.86; Wolbachia per cell robust z, rep 2: 0.313; Wolbachia per cell robust z, rep 3: -0.545

How did the screen score HP1c (Heterochromatin Protein 1c) #2?
Wolbachia per cell robust z, rep 1: -0.0631; Wolbachia per cell robust z, rep 2: 0.554; Wolbachia per cell robust z, rep 3: -0.44

Just “Wolbachia per cell robust z, rep 1”, for 2 of the entries above:
CG31122 #1	-0.314
CG31122 #2	0.385
